Reference: US20040191887A1 (WISCONSIN ALUMNI RESEARCH FOUNDATION, published 2004)

Target: botulinum neurotoxin B (Clostridium botulinum, UniProt P10844 2-441; P10844 442-1291)
Assay: GST pull-down with gangliosides, immunoblot (FIG. 2A)

B1: GST-syt II 61-267 (receptor)
chain: IPLPPWALIAMAVVAGLLLLTCCFCICKKCCCKKKKNKKEKGKGMKNAMNMKDMKGGQDDDDAETGLTEGEGEGEEEKEPENLGKLQFSLDYDFQANQLTVGVLQAAELPALDMGGTSDPYVKVFLLPDKKKKYETKVHRKTLNPAFNETFTFKVPYQELAGKTLVMAIYDFDRFSKHDIIGEVKVPMNTVDLGQPIEEWRDLQGGE
  binding result: no binding
